pKi: −log10 of the molar value. Where two headings read alike, the source gives them in different places.
Legend:
[1] = PK prediction in a clinical setting by allometric scaling (Example 23); set-up: species or system human; details: allometric scaling from rat, dog, monkey
[2] = Plasma PK of Compound A after single intravenous dose (Example 21, Table 37); type: in vivo, rat; details: Rats (n = 3); 5 mg/kg intravenous single dose
[3] = tested on: carbapenemase-producing Enterobacteriaceae (CPE), Klebsiella pneumoniae; experiment: PK/PD target of Compound A with MEPM, intramuscular infection mouse model, 5 strains (Example 25, FIG. 8); type: in vivo; details: 5 strains of Klebsiella pneumoniae pooled; in combination with MEPM
[4] = tested on: carbapenemase-producing Klebsiella pneumoniae; experiment: PK/PD target of Compound A with MEPM, intramuscular infection mouse model, 9 strains (Example 30, FIG. 11); type: in vivo; details: 5 strains of metallo-CPE
[5] = Plasma PK of Compound A after single intravenous dose (Example 21, Table 37); type: in vivo, monkey; details: Monkeys (n = 2); 1 mg/kg intravenous single dose
KPC-33 = KPC-33 (Klebsiella pneumoniae, UniProt Q9F663, D178Y); details: read-out: Ki app; KPC-33, class A; 30 min preincubation; n.d.: too low inhibitor activity at 100 µmol/L
VIM-1 = VIM-1 (Pseudomonas aeruginosa, UniProt A0A0F7KYQ8); experiment: Binding rate constant k2/Ki, nitrocefin progress curves (Example 2); type: biochemical
[6] = Preliminary population PK analysis of Phase I data, 2-compartment model (Example 28, Table 38); set-up: species or system human
[7] = tested on: carbapenemase-producing Acinetobacter baumannii; experiment: PK/PD target of Compound A with MEPM, intramuscular infection mouse model, 5 strains (Example 26, FIG. 9); type: in vivo; details: 5 strains of Acinetobacter baumannii pooled; in combination with MEPM
[8] = Phase 1 study pharmacokinetics, 3-hour intravenous infusion (Example 31, Tables 39-42); type: in vivo, human; details: average (standard deviation)
[9] = Population PK analysis of Phase I data, 2-compartment model (Example 33, Table 43); set-up: species or system human
[10] = Plasma PK of Compound A after single intravenous dose (Example 21, Table 37); type: in vivo, dog; details: Dogs (n = 2); 1 mg/kg intravenous single dose
KPC-31 = KPC-31 (Klebsiella pneumoniae, UniProt Q9F663, D178Y/H272Y); details: read-out: Ki app; KPC-31, class A; 30 min preincubation; n.d.: too low inhibitor activity at 100 µmol/L
Acinetobacter baumannii = experiment: Systemic infection lethal mouse model, ED50 (Example 15, Table 34)

In the case of N[C@@H](C(=O)N1CC(Oc2ccc3c(c2C(=O)O)OB(O)CC3)C1)c1c[nH]cn1, the “t1/2 (predicted)” value [1] was 2.2 h, the “AUC0-∞” value [2] was 13600 ± 3600 ng·h/mL and the C0 [2] was 18000 ± 700 ng/mL. The t1/2 [2] was 0.819 ± 0.101 h, the “%fT > 1 ug/mL required for bactericidal effect (1 log kill)” value [3] was 36.4% and the “%fT > 1 ug/mL required for bacteriostatic effect” value [3] was 12.2%. The “fAUC required for bactericidal effect (1 log kill)” value [3] was 134 µg·h/mL, the “fAUC required for bacteriostatic effect” value [3] was 15 µg·h/mL and the “%fT > 2 µg/mL required for a bacteriostatic effect” value [4] was 20.0%. For the same molecule, the t1/2 [5] was 1.30 h, the pKi (KPC-33) was 7.39 and the inactivation profile (VIM-1) was “typical linear inactivation profile of a fast on-fast off type”. For the same molecule, the “IIV V1, Coefficient of variation % (Shrinkage %)” value ([6]; interindividual variability) was 20.8(5.3) %, the “IIV V2, Coefficient of variation % (Shrinkage %)” value ([6]; interindividual variability) was 64.1(10.7) % and the “Proportional error, Coefficient of variation % (Shrinkage %)” value ([6]; residual variability) was 8.54(14.7) %. The “%fT > 4 µg/mL required for a 2-log kill” value [7] was 22.3%, the “fAUC required for a 2-log kill” value [7] was 142 µg·h/mL and the “fAUC required for bactericidal effect (1 log kill)” value [7] was 74 µg·h/mL. For the same molecule, the “fAUC required for bacteriostatic effect” value [7] was 32 µg·h/mL, the Cmax ([8]; 500 mg every 8 hours in combination with 2 g/dose of meropenem, day 5) was 32.0 (10.5) µg/mL and the Cmax ([8]; 500 mg every 8 hours, day 5 of repeated administration) was 24.1 (2.85) µg/mL. For the same molecule, the Cmax ([8]; 1000 mg every 8 hours, day 5 of repeated administration) was 52.1 (6.32) µg/mL, the Cmax ([8]; 1500 mg every 8 hours in combination with 2 g/dose of meropenem, day 5) was 117 (17.3) µg/mL and the Cmax ([8]; 1500 mg every 8 hours, day 5 of repeated administration) was 97.0 (22.8) µg/mL. The AUC0-inf ([8]; Japanese, single dose 250 mg) was 55.0(7.51) µg·h/mL, the AUC0-inf ([8]; Japanese, single dose 750 mg) was 188(38.3) µg·h/mL and the Cmax ([8]; Japanese, single dose 750 mg) was 42.0(5.71) µg/mL. The AUC0-inf ([8]; Japanese, single dose 1500 mg) was 461(128) µg·h/mL, the Cmax ([8]; Japanese, single dose 1500 mg) was 93.5(21.8) µg/mL and the AUC0-inf ([8]; single dose 50 mg) was 11.1 (3.45) µg·h/mL. The Cmax ([8]; single dose 50 mg) was 2.71 (0.798) µg/mL, the AUC0-inf ([8]; single dose 125 mg) was 31.9 (5.71) µg·h/mL and the Cmax ([8]; single dose 125 mg) was 7.44 (1.16) µg/mL. The AUC0-inf ([8]; single dose 250 mg) was 59.7 (12.6) µg·h/mL, the Cmax ([8]; single dose 250 mg) was 13.1 (3.88) µg/mL and the AUC0-inf ([8]; single dose 750 mg) was 135 (25.8) µg·h/mL. For the same molecule, the Cmax ([8]; single dose 750 mg) was 32.4 (4.76) µg/mL, the AUC0-inf ([8]; single dose 1500 mg) was 353 (79.1) µg·h/mL and the Cmax ([8]; single dose 1500 mg) was 71.3 (13. 8) µg/mL. The AUC0-inf ([8]; single dose 2000 mg) was 496 (86. 1) µg·h/mL, the Cmax ([8]; single dose 2000 mg) was 96.6 (9.99) µg/mL and the “θmeropenem on CL, Estimated value (95% confidence interval)” value ([9]; 0 for non-combination) was -0.174 (-0.262, -0.0905) ;. The “θeGFR on CL, Estimated value (95% confidence interval)” value ([9]; covariate exponent, eGFR/108) was 0.455 (0.353, 0.636), the “ωVp^2, Estimated value (95% confidence interval)” value ([9]; interindividual variability) was 0.240 (0.0046, 0.5300) and the “CL θCL, Estimated value (95% confidence interval)” value ([9]; population PK, 2-compartment model) was 4.54 (4.27, 4.82) L/h. It also gave a C0 [10] of 6680 ng/mL, a Vss [10] of 0.373 L/kg and a t1/2 [10] of 2.50 h. The pKi (KPC-31) was 5.63, the “effective dose of the MEPM reduced to” value (Acinetobacter baumannii; metallo-carbapenemase-producing Acinetobacter baumannii) was 1/89 and the “effective dose of the MEPM reduced to” value (Acinetobacter baumannii; serine-carbapenemase-producing Acinetobacter baumannii) was 1/25. For the same molecule, the “effective dose of the MEPM reduced to” value (P. aeruginosa; metallo-carbapenemase-producing P. aeruginosa) was 1/4 and the “effective dose of the MEPM reduced to” value (P. aeruginosa; serine-carbapenemase-producing P. aeruginosa) was 1/9.

Source: patent EP4635500A1, “THERAPEUTIC AGENT FOR BACTERIAL INFECTION” (Sumitomo Pharma Co., Ltd., priority 2022, dated 2024)
